Assay results from patent US20250333484A1.

Assays:
[1] = target: 364 aa long N-terminal probe of EBOV GP (Ebola virus variant Mayinga) (UniProt Q05320)
[2] = target: 364 aa long N-terminal probe of EBOV GP (Ebola virus variant Mayinga) (UniProt Q05320); remark: listed apart in the source

Substance: Fab114 (Fab of parental mAb114)
- Kd [1]: 0.148 nM
- Kd [2]: 0.148 nM

Read-outs that look alike come from different tables or passages of the source.
